Anti-infective test results gathered from many reports (values: NIAID ChemDB through PubChem).

Shared fields: growth or infection tests

Percent inhibition refers to the dose given; in toxicity tests it is the harm to the cells. MIC50, MIC90 and the like: level of inhibition, or share of isolates inhibited. ECn: concentration that inhibits the pathogen or its effect by n%. Neighbouring rows are from separate reports. An empty or dashed field is not shown.

| SMILES | agent | read by | dose | strain or isolate | measure | cells | value |
|---|---|---|---|---|---|---|---|
| Oc1ccccc1N=Cc1ccccc1 | Cryptococcus gattii | - | - | L-28/02 | MIC99 | - | 8 µg/mL |
| O=S(=O)(O)c1cccc2c(O)cccc12 | Herpes simplex virus | cytopathic effect | 50 µg/mL | - | inhibition | Human conjunctiva cells | 0% |
| CCC(CC)[C@H](NC(C)=O)[C@@H]1[C@H](O)[C@@H](C(=O)O)C[C@H]1N=C(N)N | Influenza A virus | - | - | Influenza A/Beijing/32/92 (H3N2) | EC50 | MDCK | 0.07 µM |
| Nc1cc(S(=O)(=O)[O-])cc2cc(S(=O)(=O)[O-])ccc12 | Herpes simplex virus | cytopathic effect | 50 µg/mL | - | inhibition | Human amnion AV3 cells | 0% |
| O=c1[nH]c(=O)n([C@@H]2O[C@H](CO)[C@@H](O)[C@@H]2O)cc1/C=C/Cl | Varicella zoster virus | plaque count | 0.001 µg/mL | HIRAI | inhibition | HELF | 97% |
| O=[N+]([O-])c1ccc(C=Nc2ccccc2O)cc1 | Cryptococcus neoformans | - | - | F-10 | MIC99 | - | 11.3 µg/mL |
| O=c1[nH]c(=O)n([C@@H]2O[C@H](CO)[C@@H](O)[C@@H]2O)cc1/C=C/Br | Varicella zoster virus | plaque count | 0.0001 µg/mL | KANNO | inhibition | HELF | 69% |
| Nc1c(S(=O)(=O)[O-])cc2cc(S(=O)(=O)[O-])ccc2c1O | Adenovirus | cytopathic effect | 10 µg/mL | TYPE 3 | inhibition | Human amnion AV3 cells | 0% |
| C=CCc1ccc(O)c(OC)c1 | Candida tropicalis | turbidity | - | 2467 | MIC90 | - | 490 µg/mL |
| C=Cc1cn([C@@H]2O[C@H](CO)[C@@H](O)[C@@H]2O)c(=O)[nH]c1=O | Varicella zoster virus | plaque count | 1 µg/mL | Kawaguchi | inhibition | HELF | 97% |
| Oc1ccccc1N=Cc1ccc2c(c1)OCO2 | Cryptococcus neoformans | - | - | ATCC 28957 | MIC99 | - | 5.7 µg/mL |
| O=C1C(c2[nH]c3ccc(S(=O)(=O)O)cc3c2O)=Nc2ccc(S(=O)(=O)O)cc21 | Rhinovirus | cytopathic effect | 10 µg/mL | - | inhibition | Human amnion AV3 cells | 17% |
| Cc1cc(CCCOc2c(C)cc(-c3noc(C(F)(F)F)n3)cc2C)on1 | Rhinovirus | cytopathic effect / visual reading | - | Isolate 32 | EC50 | OHIO HELA-I | 0.03 µg/mL |
| Cc1ccc(C(=O)Nc2ccc(S(=O)(=O)O)c3cc(S(=O)(=O)O)cc(S(=O)(=O)O)c23)cc1NC(=O)c1cccc(NC(=O)Nc2cccc(C(=O)Nc3cc(C(=O)Nc4ccc(S(=O)(=O)O)c5cc(S(=O)(=O)O)cc(S(=O)(=O)O)c45)ccc3C)c2)c1 | Adenovirus | cytopathic effect | 10 µg/mL | TYPE 3 | inhibition | Human amnion AV3 cells | 0% |
| CCO/N=C/c1ccc(OCCC2CCN(c3ccc(Cl)nn3)CC2)cc1 | Rhinovirus | neutral red | - | 1200 (ICAM-1 receptor group 33) | EC50 | KB | 0.003 µM |
| Nc1nc(=O)n([C@@H]2O[C@H](CO)[C@@H](O)[C@@H]2F)cc1I | Varicella zoster virus | plaque count | 0.001 µg/mL | YS | inhibition | HELF | 0% |
| O=S(=O)([O-])c1ccc2c(S(=O)(=O)[O-])cc(S(=O)(=O)[O-])cc2c1 | Adenovirus | cytopathic effect | 10 µg/mL | TYPE 3 | inhibition | Human amnion AV3 cells | 0% |
| O=c1[nH]c(=O)n([C@H]2C[C@H](O)[C@@H](CO)O2)cc1I | Varicella zoster virus | plaque count | 0.1 µg/mL | OKA | inhibition | HELF | 3% |
| Oc1ccccc1N=Cc1ccc(F)cc1 | Cryptococcus neoformans | broth dilution | - | C-3-1 | MIC | - | 4 µg/mL |

The first 2 rows once more:

SMILES	agent	read by	dose	strain or isolate	measure	cells	value
Oc1ccccc1N=Cc1ccccc1	Cryptococcus gattii	-	-	L-28/02	MIC99	-	8 µg/mL
O=S(=O)(O)c1cccc2c(O)cccc12	Herpes simplex virus	cytopathic effect	50 µg/mL	-	inhibition	Human conjunctiva cells	0%